28 compounds from PubChem BioAssay AID2315 (National Center for Advancing Translational Sciences (NCATS), 2010) can be followed below.

The entries are a selection whose mix differs from that of the whole data set. Active and inactive are the calls of the source. Rule as the data show it: active = inhibition mostly above about 28% (no sharp cut-off); inactive = mostly below about 43%.

This test in a line: A qHTS for Small Molecule Inhibitors of Shiga Toxin. Also: 0% is about no effect. The following applies: Vero cells, Shiga toxin protein synthesis inhibition reporter; at 38.7 µM; hits give high values. In general terms: qHTS replaces the single test concentration by a dilution series.
By inhibition is commonly meant the relative decrease from the control value, in per cent. For `CCOP(=O)(Nc1cccc2cccnc12)OCC`, the inhibition was inactive: 6.68%.

With `CCC(C)N(CC(C)C)C(=S)SC(NC(C)=O)C(Cl)(Cl)Cl` (stereo not drawn), the inhibition is inactive: 23%.

On to `CCOC(=O)c1ccc(NC(=O)C(C)(CCl)SC)cc1` (stereo not drawn), for which the inhibition was active: 78.9%.

As for `O=C(OC1CN2CCC1CC2)c1cccc([N+](=O)[O-])c1` (stereo not drawn), the inhibition is inactive: 3.87%.

As for `O=C(Nc1ccncc1[N+](=O)[O-])c1ccc([N+](=O)[O-])cc1[N+](=O)[O-]`, the inhibition is inactive: -2.59%.

With `O=C(COc1ccccc1)OC1CN2CCC1CC2` (stereo not drawn), the inhibition was inactive: -1.65%.

For the compound `COP1(=S)c2c(C)nn(CCC#N)c2N=C(c2ccc(F)cc2)N1C` (stereo not drawn), the inhibition was inactive: -6.81%.

`O=[N+]([O-])c1ccc(Nc2ccc(Oc3ccc([N+](=O)[O-])cc3[N+](=O)[O-])cc2)c([N+](=O)[O-])c1`: the inhibition is inactive: -6.11%.

As to `O=P(Nc1ccccn1)(c1cccc2ccccc12)c1cccc2ccccc12`, the inhibition is inactive: -6.79%.

With `Cc1cc(SC(NC=O)C(Cl)(Cl)Cl)ncn1` (stereo not drawn), the inhibition is inactive: 5.47%.

For the compound `CCOC(=O)Nc1cccc([As](=O)(O)O)c1`, the inhibition was inactive: -5.6%.

With `Cc1cc(SC(NC(=O)c2ccccc2)C(Cl)(Cl)Cl)nc(C(C)C)n1` (stereo not drawn), the inhibition is inactive: 10.8%.

Regarding `CCCCOc1ccc(C(=O)NCC2(N3CCCCC3)CCCCC2)cc1OC`, the inhibition was inactive: -4.34%.

On to `CCOC(=O)Nc1ccc([As](=O)(O)O)c(O)c1`, for which the inhibition was inactive: -20%.

Turning to `O=[N+]([O-])c1cc([N+](=O)[O-])c(-c2ccn[nH]2)s1`, the inhibition was active: 62.6%.

Regarding `CCN(CC)C(=S)SC(NC=O)C(Cl)(Cl)Cl` (stereo not drawn), the inhibition is inactive: -2.16%.

For `CC(C)NC(=O)NP(=O)(Oc1ccccc1)Oc1ccccc1`, the inhibition is inactive: 17%.

As to `CC(C)c1ccc(OP(=O)(Nc2ccccn2)Oc2ccccc2F)cc1` (stereo not drawn), the inhibition is inactive: 35%.

Consider `ClCCSc1nnc(-c2cccnc2)o1`, for which the inhibition is inactive: 19.9%.

Regarding `Cc1ccc2nc3c(c(C)c2c1)CC(C(Cl)Cl)S3` (stereo not drawn), the inhibition is inactive: 29.6%.

Take `Cc1ccc(OP(=O)(Nc2ccc([N+](=O)[O-])cn2)Oc2ccc(C)cc2)cc1`: the inhibition is inactive: 1.74%.

Regarding `O=[As](O)(c1ccc(O)cc1)c1ccccc1O`, the inhibition was inactive: 5.18%.

`C[As](=O)(O)c1cccc(C(=O)O)c1`: the inhibition is inactive: -1.74%.

Turning to `COc1ccc(N/C(=N/P(=O)(N2CCOCC2)N2CCOCC2)N2CCOCC2)cc1`, the inhibition was inactive: 53.2%.

For the compound `COc1cc(I)ccc1[As](=O)(O)O`, the inhibition is inactive: 6.91%.

For `COc1ccc2nc(NP(=O)(c3ccccc3)c3ccccc3)sc2c1`, the inhibition is inactive: -3.34%.

`Cc1cc(=O)[nH]c(N[N+](=O)[O-])n1`: the inhibition is inactive: 10.8%.

Take `O=C(OC1CN2CCC1CC2)C12CC3CC(CC(C3)C1)C2` (stereo not drawn): the inhibition is inactive: -6.19%.
